Laboratory results published in publication PMC3585978.

Tested on: His9-PigP
Experiment: EMSA
Details: 5 mM MgCl2, competed by unlabeled pigA promoter; recombinant protein; residues 1-204; label: 5'-biotin; probe letters rebuilt from the primers and the genome

Q: Does “CGGAATTCAGTATCGAGCGCATTCATGCCCAATCCGCCGAACGCGGTCGTCACGGGGGCTCGGGTAAAACCATAGGCGGCGGCTTGTTGCCACAAATCCAGGCTTAATACCTGCCGTGAAAGCCGAGCATGCGCATCCTGATCCAGCACCTCGCGGGCAAAACGCTGAGCGGATTCGCTTAGAGCCTGCTGCTCACTTGATAAGTTAAAATCCATGACGAACTCCGCCATTGGGTTGAGAGATTAAATTAGCTAATATTTCTAGTTTGGAGGTGGCCAAAACTCAAACAGGCAAAGTAATGGTAAATGTAAGTAAATGTTTATTTATGTGGTCTATTATTACAATTTTGTTAATTGATGTTTTTATTTTGTTGTTTTTGTTGTGTTTTATTTTGTGTTATTTATACACAAAAATTTACATATAATAAAAATCTTAATTTGATCAAATTTTAATAGGTTAGATTGTCTATTGTTTTTTGATGAATACTTTGCAGGTGAAGTATCTATCTTTTGGATGTGGCTATCGGTTTCTCATCGATATCGACGGTAGGGCGTTGAGGCTTGGTGAGTGGCGGAAAGCGGCTTAAGATAGGAGATGAGCAGGAGCATTCCGGAGGAAAAAATGAATATTAGCGACGTCG (double strand) [pigA promoter]” bind?
A: Result: binds

The exact form of at least one protein or probe is not confirmed.
